# System: M. tuberculosis strain Erdman
# Details: mouse, in vivo
smiles,measurement,value
"Nc1nc2c(ncn2[C@@H]2O[C@@H]3CO[P@@](=O)(S)O[C@H]4[C@@H](O)[C@H](n5cnc6c(=O)[nH]c(N)nc65)O[C@@H]4CO[P@@](=O)(S)O[C@H]3[C@H]2O)c(=O)[nH]1 [RR-CDG, dithio-[RP, RP]-cyclic-[G(3′,5′)pG(3′,5′)p]]",protection against aerosol challenge with virulent M. tuberculosis,1.5 logs

# — patent publication US11224646B2, “Intranasal delivery of a cyclic-di-nucleotide adjuvanted vaccine for tuberculosis” (priority 2018, dated 2022)
